From PMC5082683 (2016)
Values joined by “and” are separate entries in the source; they are usually repeats but may differ in a detail not shown here. Identical values can stand only once.

What was measured:
[1] = target: T1, recombinant ectodomain of Gc (rGc) from Hantaan virus strain 76-118 (Hantaan virus strain 76-118, N-linked glycan at Asn280)
[2] = target: T1, recombinant ectodomain of Gc (rGc) from …; remark: listed apart in the source

B1: scFv A5 (scFv, V domains shown)
VH: QVQLQESGPGLVKPSETLSLTCVVSGGSISSSNWWSWVRQPPGKGLEWIGEIYHSGSPNYNPSLKSRVTISVDKSKNQFSLKLSSVTAADTAVYYCARQMRQWGQGTLVTVSS
VL: SSELTQDPAVSVALGQTVRITCQGDSLRSYYASWYQQKPGQAPVLVIYGKNNRPSGIPDRFSGSSSGNTASLTITGAQAEDEADYYCNSRDSSGNHNVFGGGTKLTVL
For B1, the koff [1] was 0.123 s⁻¹ and 0.0194 s⁻¹ and the Kd [2] was 6.4 µM and 1.11 µM.
